According to paper PMC11110755, “Structure-based virtual screening of unbiased and RNA-focused libraries to identify new ligands for the HCV IRES model system” (RSC Medicinal Chemistry, 2024):

Tests used:
[1] = system: HCV IRES subdomain IIa; assay type: binding, hepatitis C virus; conditions: at high concentrations
Description: For the MST assay, the same sequence of the two stranded HCV IRES subdomain IIa as for the FRET assay was used. One strand was 5′-Cy5-labelled and the other strand was unmodified ([…], Cy5-[…], Biomers.net GmbH). All samples containing labelled RNA were treated under light protection. MST experiments were performed on a Monolith NT.115 from NanoTemper Technologies using standard uncoated capillaries. The strands were annealed by heating to 75 °C in MST buffer (10 mM HEPES pH 7.0, 2 mM MgCl2) and cooled down to room temperature for at least 20 min. The 5′-Cy5-labelled HCV IRES domain IIa RNA was diluted to 30 nM in MST buffer and supplemented with compounds 8–25 in appropriate concentrations. Compounds 4 and 5 were used as positive controls. For the initial screening, compounds were added to final concentrations of 1000 (or 316 if limited by solubility), 100, 10 and 0.001 μM (Fig. S5 ^†). If a concentration-dependent shift of thermophoresis was observed, KD-values were determined using concentrations ranging from 1 mM (if permitted by solubility, otherwise starting from 316 or 100 μM) to 0.01 μM in a 3.16-fold (semi-logarithmic) dilution series. For each experiment, one DMSO negative control was carried out. Final DMSO concentration was always 2%.
(§1) Off-target counter screens by MST were performed as described previously.[31,84] Briefly, the 5′-Cy5-labelled Tte preQ1-Riboswitch aptamer domain (Biomers.net GmbH) was heated to 75 °C for 5 min, cooled down to room temperature for at least 20 min and then diluted to 20 nM in MST buffer (50 mM Tris-HCl pH 7.5, 100 mM KCl, 25 mM MgCl2) and supplemented with compounds 4, 5, 8–13, 18, 21, 22 and 26 to final concentrations of 1000, 100, 10 and 0.001 μM. PreQ1 was used as a positive control. The 5′-Cy5-labelled B. angulatum SAM VI-Riboswitch aptamer domain (Eurofins Genomics GmbH) was heated to 75 °C for 5 min, cooled down to room temperature for at least 20 min and then diluted to 20 nM in MST buffer (50 mM Tris-HCl pH 7.5, 100 mM KCl, 25 mM MgCl2) and supplemented with compounds 5, 9 and 28 to final concentrations of 1000, 100, 10 and 0.001 μM. SAM was used as a positive control. For each experiment, one DMSO negative control was carried out. The final DMSO concentration was 2%. All measurements were performed at least as duplicates for pre-screening and triplicates for KD-determination. MST measurements were analyzed from signals after 18 s laser on-time using the MO.Affinity Analysis software (version 2.3) and exported for statistical analysis and plotting in GraphPad Prism (version 8.0.1., GraphPad Software, Boston, Massachusetts USA, https://www.graphpad.com).

[2] = system: Tte preQ1-Riboswitch aptamer domain; experiment: MST off-target counter screen, preQ1-riboswitch aptamer domain; assay type: binding, Thermoanaerobacter tengcongensis; conditions: at high concentrations
Description: as §1

Row | Structure (SMILES) | aggregation in MST pre-screening (HCV IRES) [1] | aggregation in preQ1-riboswitch MST counter-screening [2]
1 | CN(C)CCCn1c(N)nc2ccc3c(c21)CC(CN(C)C)CO3 (stereo not drawn) [Compound 5, reference compound] | AggregaƟon | 
2 | CCOc1ccc2c(C)nc(NC(=N)NC)nc2c1 [Compound 8] | AggregaƟon | 
3 | CCOc1ccc2c(C)nc(NC(=N)N)nc2c1 [Compound 8a] | AggregaƟon | AggregaƟon
4 | CNC(=N)Nc1nc(C)c2ccc(OC)cc2n1 [Compound 8b] | AggregaƟon | AggregaƟon
5 | COc1ccc2c(C)nc(NC(=N)N)nc2c1 [Compound 8c] | AggregaƟon | AggregaƟon
6 | Nc1nc(N2CCN(Cc3c(Cl)ccc(O)c3Cl)CC2)cc(=O)[nH]1 [Compound 9] |  | AggregaƟon
7 | NC(=O)c1c[nH]c2ccc(NC(=O)CCc3cc4n(n3)CCCNC4)cc12 [Compound 10] | AggregaƟon | AggregaƟon
8 | Nc1cc(-c2ccc3[nH]ncc3c2)c2cc[nH]c2n1 [Compound 12] | AggregaƟon | 
9 | NC1=NC(c2cn[nH]c2-c2cccc(O)c2)n2c(nc3ccccc32)N1 (stereo not drawn) [Compound 13] |  | AggregaƟon
10 | N=C(N)NC(=O)c1nc(Cl)c(N)nc1N [Compound 26, amiloride, reference compound] | AggregaƟon | 
11 | CN(C)C(=O)COC(=O)Cc1ccc(OC(=O)c2ccc(NC(=N)N)cc2)cc1 [Compound 27, Camostat, reference compound] | AggregaƟon | 
